Pooled drug test results. Numbers come from NIAID ChemDB, via PubChem.

Shared fields: whole-cell or culture tests

Percent inhibition refers to the dose given; in toxicity tests it is the harm to the cells. ECn is the concentration giving n% inhibition of infection, replication or growth. Rows are shuffled and stem from different studies. Blank or dashed fields: not listed here.

| structure | agent | strain or isolate | cell line | method | endpoint | dose | result |
|---|---|---|---|---|---|---|---|
| COP(=O)(CC(=O)O[C@H]1C[C@H](n2cc(CCCl)c(=O)[nH]c2=O)O[C@@H]1CO)OC | Herpes simplex virus 2 | TK- | VERO | cytopathic effect | inhibition | 227 µM | >25% |
| C[C@H]1O[C@@H](n2ccc(NC(=O)c3ccc(NC(=O)[C@@](C)(N)CO)cc3)nc2=O)C[C@@H](O)[C@@H]1O[C@H]1O[C@H](C)[C@@H](N(C)C)[C@H](O)[C@H]1O | Herpes simplex virus 1 | KOS | HeLa | cytopathic effect | EC50 |  | >500 µg/mL |
| O=C(O)P(=O)(O)O | Herpes simplex virus 2 | 91075 | SIRC | plaque count | inhibition | 100 µM | 91% |
| Nc1ncnc2c1ncn2CCOCP(=O)(O)O | Herpes simplex virus 1 | PFA-resistant-5 | HeLa | virus yield | EC90 |  | 370 µM |
| O=C(OCc1ccccc1)P(=O)(O)OC[C@H]1O[C@@H](n2cc(CCCl)c(=O)[nH]c2=O)C[C@@H]1O | Herpes simplex virus 2 | TK- | VERO | cytopathic effect | inhibition | 205 µM | >25% |
| CC(C)=CCN1CC[C@@]2(C)c3cc(O)ccc3C[C@@H]1[C@H]2C | Herpes simplex virus 1 | KOS | HeLa | cytopathic effect | EC50 |  | >200 µg/mL |
| CCc1cn([C@H]2C[C@H](O)[C@@H](CO)O2)c(=O)nc1N | Herpes simplex virus |  |  | cytopathic effect | EC50 |  | 40 µg/mL |
| Nc1nc2c(ncn2COCCOP(=O)(O)C(=O)O)c(=O)[nH]1 | Herpes simplex virus 1 | AVD | VERO | cytopathic effect | EC95 |  | 286 µM |
| COC(=O)c1c(OC)cc2cc3c(c(O)c2c1C)C(=O)[C@]1(O)C(=O)C=C(OC)[C@@H](O)[C@]1(O)C3=O | Herpes simplex virus 1 | KOS | HeLa | cytopathic effect | EC50 |  | 32 µM |
| O=C(CP(=O)(O)O)O[C@H]1C[C@H](n2cc(CCCl)c(=O)[nH]c2=O)O[C@@H]1CO | Herpes simplex virus 2 | K979 | VERO | cytopathic effect | inhibition | 242 µM | >25% |
| CCC#Cc1ccc2c(c1)c(=O)c(C(=O)NCc1ccc(Cl)cc1)nn2C | Herpes simplex virus |  |  |  | EC50 |  | <20 µM |
| C/C=C(\CO)C(=O)O[C@H]1[C@H](O)[C@@H](C(=O)OC)O[C@@H]2C[C@H]3O[C@@H](n4cnc5c(N)ncnc54)[C@H](OC)[C@H]3O[C@]21O | Herpes simplex virus 1 | KOS | HeLa | cytopathic effect | EC50 |  | >100 µg/mL |
| O=C1Cn2cc(C(=O)NCc3ccc(Cl)cc3)c(=O)c3cc(CN4CCOCC4)cc(c32)N1 | Herpes simplex virus |  |  |  | EC50 |  | <0.51 µM |
| COc1ccc(C[C@H]2NC[C@H](O)[C@H]2OC(C)=O)cc1 | Herpes simplex virus 1 | KOS | HeLa | cytopathic effect | EC50 |  | >100 µg/mL |
| CCOC(=O)P(=O)(OC)OC[C@H]1O[C@@H](n2cc(I)c(=O)[nH]c2=O)C[C@@H]1O | Herpes simplex virus 2 | K979 | VERO | cytopathic effect | inhibition | 5.9 µM | >25% |
| C1N2CN3CN1CN(C2)C3 | Herpes simplex virus 1 | KOS | HeLa | cytopathic effect | EC50 |  | >200 µg/mL |
| O=C(O)CP(=O)(O)O | Herpes simplex virus 2 | TK- | VERO | cytopathic effect | inhibition | 71.4 µM | >25% |
| O=C(O)CP(=O)(O)O | Herpes simplex virus 1 | KOS | HEL | cytopathic effect | EC50 |  | 14.7 µg/mL |
| O=c1[nH]c(=O)n([C@H]2C[C@H](O)[C@@H](CO)O2)cc1CCCl | Herpes simplex virus 2 | K979 | VERO | cytopathic effect | inhibition | 102 µM | >25% |
| CNCC1=CC[C@@H](N)[C@@H](O[C@H]2[C@H](O)[C@@H](O[C@H]3OC[C@](C)(O)[C@H](NC)[C@H]3O)[C@H](N)C[C@@H]2N)O1 | Herpes simplex virus 1 | KOS | HeLa | cytopathic effect | EC50 |  | >200 µg/mL |
| C[C@@]1(CO)[C@H](O)CC[C@@]2(C)[C@H]1CC[C@H]1C[C@@H]3C[C@@]12CC[C@]3(O)CO | Herpes simplex virus 1 | KOS | HeLa | virus yield | EC90 |  | 4 µM |
| Nc1nc2c(ncn2COCCO)c(=O)[nH]1 | Herpes simplex virus 2 | TK- | VERO | cytopathic effect | inhibition | 132 µM | >25% |